Compound potency records, mixed from different reports. Data source: NIAID ChemDB in PubChem.

Common to all: whole-cell or culture tests; agent: Mycobacterium tuberculosis

An empty or dashed field is not shown. Inhibition is in % at the dose shown (toxicity tests: loss of growth or viability). For "inactive" no cut-off is given. Conditions beyond the fields shown may differ between rows. ECn is the concentration giving n% inhibition of infection, replication or growth. Two numbers with a dash give a range or band. MIC bound: limit read from a one-dose screen. A number after MIC or MFC names an inhibition level or a share of isolates.

smiles,method,mutations,read-out,strain or isolate,dose,result
NC[C@H]1CN(c2cc(F)c(N3CC4CCC(C3)O4)c(F)c2)C(=O)O1,broth dilution / fluorescence,,MIC,H37Rv,,0.2–0.3 µg/mL
O=C(Nc1ccccc1C(F)(F)F)c1cnccn1,resazurin,,MIC,ATCC 27294,,>100 µg/mL
Nc1nc(N)c(N=Nc2ccc(Cl)cc2Cl)c(=O)[nH]1,BACTEC,,inhibition,H37Rv,12.5 µg/mL,5%
O=C(N/N=C/c1ccc([N+](=O)[O-])cc1)c1ccccc1,,,MIC,,,1 µg/mL
Cc1cc(O)c(C(C)C)cc1N1C(=O)CSC1c1ccc(O)cc1,,,inhibition,H37Rv,100 µg/mL,inactive
COc1ccc2nc3cc(Cl)ccc3c(Nc3cc(CN4CCCC4)c(O)c(CN4CCCC4)c3)c2n1,resazurin,Rv2466c W28S,MIC,53.3,,5–10 µg/mL
Cc1nc(NCCc2ccc(OC(F)(F)F)cc2)c2ccccc2n1,luminescence,,MIC50,H37Rv,,6.7 µM
Cc1c(N2C[C@@H](N)C3(CC3)C2)c(F)c(N)c2c(=O)c(C(=O)O)cn(C3CC3)c12,,,MIC90,27 strains (levofloxacin-susceptible),,1.56 µg/mL
O=C(NNC1CCN(Cc2ccccc2)CC1)c1ccccc1,BACTEC,,inhibition,H37Rv,12.5 µg/mL,0%
FC(F)(F)Oc1ccc(Oc2ccc(Nc3ncnc4ccoc34)cc2)cc1,luminescence,,MIC50,H37Rv,,>20 µM
O=C1C=CC(O)(c2ccccc2)C=C1,,,EC50,H37Rv,,>6.25 µg/mL
Cc1nc2ccc(Cl)cc2c(=S)n1-c1ccc(Br)cc1,,,MIC,My 331/88,,31 µg/mL
CN(C)c1ccc(CNc2ncnc3ccccc23)cc1,luminescence,,MIC50,H37Rv,,>20 µM
Nc1nc(-c2ccccc2)nc2nc3[nH]c(=O)[nH]c(=O)c3nc12,BACTEC,,MIC bound,H37Rv,,>12.5 µg/mL
NNC(=O)c1ccncc1,resazurin,Rv3405c c190t,MIC,Ty1,,0.025 µg/mL
NNC(=O)c1nc(N)n[nH]1,BACTEC,,MIC bound,H37Rv,,≤12.5 µg/mL
CCCCc1ccc(N2C(=S)c3cc(Cl)ccc3NC2(C)C)cc1,,,MIC,My 331/88,,>125 µg/mL
O=C1O[C@@H](Cn2nccn2)CN1c1ccc(N2CC3(COC3)C2)c(F)c1,broth dilution / fluorescence,,MIC,H37Rv,,>32 µg/mL
CO[C@H]1/C=C/O[C@@]2(C)Oc3c(C)c(O)c4c(O)c(c(/C=N/N=C/N5CCCCC5)c(O)c4c3C2=O)NC(=O)/C(C)=C\C=C\[C@H](C)[C@H](O)[C@@H](C)[C@@H](O)[C@@H](C)[C@H](OC(C)=O)[C@@H]1C,,,MIC,7 strains,,0.014 µg/mL
CO/C(=N\N=C\c1cc(OC)ccc1OC)c1ccncc1,,,MIC,H37Rv,,>20 µg/mL
CO[C@H]1/C=C/O[C@@]2(C)Oc3c(C)c(O)c4c(O)c(c(/C=N/N=C/N5CCCC5)c(O)c4c3C2=O)NC(=O)/C(C)=C\C=C\[C@H](C)[C@H](O)[C@@H](C)[C@@H](O)[C@@H](C)[C@H](OC(C)=O)[C@@H]1C,,,MIC,,,0.0025 µg/mL
Cc1ccccc1NC(=O)c1cnccn1,resazurin,,MIC,ATCC 27294,,100 µg/mL
Fc1cccc2c(Nc3ccc(Oc4ccc(C(F)(F)F)cc4)cc3)ncnc12,luminescence,,MIC50,H37Rv,,>50 µM
Cc1cc2c(c3ncccc13)OCN(Cc1ccc(Cl)c(Cl)c1)C2,,,MIC bound,H37Rv,,<6.25 µg/mL
CC(C)=CCC/C(C)=C/CNc1ncnc2ccccc12,luminescence,,MIC50,H37Rv,,>40 µM
C[C@@H]1CN(c2c(F)c(N)c3c(=O)c(C(=O)O)cn(C4CC4)c3c2F)C[C@H](C)N1,,,MBC,,,0.5 µg/mL
Cc1nc(Nc2ccc(Oc3cccc(C(F)(F)F)c3)cc2)c2ccc(F)cc2n1,luminescence,,MIC50,H37Rv,,>20 µM
CN1CCN(c2c(F)cc3c(=O)c(C(=O)O)cn(CCF)c3c2F)CC1,,,MIC90,,,>4 µg/mL
C/C(=N\NC(=O)c1ccncc1)c1cccc(C(F)(F)F)c1,,,MIC,H37Rv,,>20 µg/mL
CC(C)(C)Cc1cssc1=S,BACTEC,,MIC,H37Rv,,≥12.5 µg/mL
c1ccc(Oc2ccc(Nc3ncnc4ccccc34)cc2)cc1,luminescence,,MIC50,H37Rv,,>20 µM
O=C1C=CC(O)(c2cc3ccccc3s2)C=C1,,,MIC,H37Rv,,>6.25 µg/mL
FC(F)(F)c1ccc(Oc2ccc(Nc3nc(C4CC4)nc4ccccc34)cc2)cc1,luminescence,,MIC50,H37Rv,,>20 µM
CCCCNC(=O)NC1CC(OC2CC(O)(C(C)=O)Cc3c(O)c4c(c(O)c32)C(=O)c2c(OC)cccc2C4=O)OC(C)C1O,BACTEC,,MIC,H37Rv,,≥12.5 µg/mL
COC1(c2nc3ccc(C)cc3s2)C=CC(=NS(=O)(=O)c2ccc(C)cc2)C=C1,,,inhibition,H37Rv,6.25 µg/mL,30%
CC(=O)NNC(=O)c1ccccc1,,,MIC,,,>200 µg/mL
COC1OC(CO)C(O)C(O)C1N1C(=O)c2ccccc2C1=O,BACTEC,,inhibition,H37Rv,12.5 µg/mL,23%
O=C1C=CC(O)(c2ccc3ccccc3c2)C=C1,,,MIC,H37Rv,,>6.25 µg/mL
COc1cccc(NC(=O)c2cnccn2)c1,resazurin,,MIC,ATCC 27294,,>100 µg/mL
O=C1C=CC(O)(c2nc3ccccc3o2)C=C1,,,EC50,H37Rv,,<6.25 µg/mL
C=C1C(=O)O[C@H]2/C=C(/C)[C@H](OC(C)=O)[C@@H]3O[C@H]3[C@@](C)(O)C[C@H](OC(=O)/C(C)=C\C)[C@H]12,BACTEC,,inhibition,H37Rv,12.5 µg/mL,3%
FC(F)(F)Oc1ccc(CNc2ncnc3ccsc23)cc1,luminescence,,MIC50,H37Rv,,>50 µM
O=C1c2ccccc2C(=O)N1Nc1ccccc1,,,MIC,,,>200 µg/mL
COc1ccc(C2C=C(c3ccc4c(c3)OCO4)Oc3c2c(=O)oc2ccccc32)cc1OC,BACTEC,,MIC bound,H37Rv,,>12.5 µg/mL
CC1(C)Nc2ccccc2C(=S)N1c1ccc(Cl)c(Cl)c1,,,MIC,My 331/88,,62.5 µg/mL
CO/C(=N\N=C\c1cccc(F)c1)c1ccncc1,,,MIC,16PI,,>20 µg/mL
CCSC1CC(=O)CC(SCC)C1(O)c1ccccc1,,,MIC,H37Rv,,>6.25 µg/mL
CO/C(=N\N=C\c1cccc(Cl)c1)c1ccncc1,,,MIC,16PI,,>20 µg/mL
FC(F)(F)Oc1ccc(Oc2ccc(Nc3ncnc4cc(C(F)(F)F)ccc34)cc2)cc1,luminescence,,MIC50,H37Rv,,>50 µM
N[C@@H]1CN(c2c(F)cc3c(=O)c(C(=O)O)cn([C@@H]4C[C@@H]4F)c3c2Cl)CC12CC2,,,MIC90,18 strains (levofloxacin-resistant),,1.56 µg/mL
Cc1ccc(C)c(N2C(=O)C(=O)C(c3nc4ccccc4s3)C(=Nc3cccc4c(=O)[nH][nH]c(=O)c34)C2=O)c1,resazurin,,MIC bound,H37Rv,,>6.25 µg/mL
O=C1C=CC(O)(c2nccs2)C=C1,,,EC50,H37Rv,,<6.25 µg/mL
CCOC(=O)[C@@H]1ON2O[C@@H](OC3CCCCC3c3ccccc3)C[C@H]3OC(=O)C1C32,BACTEC,,inhibition,,0.5 µM,0%
Cn1ccc2ncnc(Nc3ccc(Oc4ccc(C(F)(F)F)cc4)cc3)c21,luminescence,,MIC50,H37Rv,,15 µM
CN1C(=O)C[N+]([O-])=C(c2ccccc2)c2cc(Cl)ccc21,BACTEC,,inhibition,H37Rv,12.5 µg/mL,-14%
CCCCCCCC/C=C\CCCCCCC/C=N/NC(=O)c1ccccc1Cl,,,MIC,,,100 µg/mL
O=C1C=CC(O)(c2cc3ccccc3[nH]2)C=C1,,,EC50,H37Rv,,<6.25 µg/mL
CC1COc2c(N3CCN(C)CC3)c(F)cc3c(=O)c(C(=O)O)cn1c23,agar,,MIC,SMI 1,,0.5 µg/mL
FC(F)(F)c1cccc(Oc2ccc(CNc3ncnc4ccsc34)cn2)c1,luminescence,,MIC50,H37Rv,,>40 µM
CC(=O)C(NC(=O)C(C)C(O)C(C)NC(=O)C(NC(=O)c1nc(C(CC(N)=O)NCC(N)C(N)=O)nc(N)c1C)C(OC1OC(CO)C(O)C(O)C1(C)OC1OC(CO)C(O)C(O)(C(N)=O)C1O)c1cnc[nH]1)C(=O)NCCC1=NC(c2nc(C(N)=O)cs2)CS1,BACTEC,,inhibition,H37Rv,12.8 µg/mL,100%
FC(F)(F)c1ccc(CNc2ncnc3ccccc23)c(N2CCOCC2)c1,luminescence,,MIC50,H37Rv,,>10 µM
CC(=O)Nc1ccccc1C(=O)C(=O)Nc1ccccc1C(=O)NN,BACTEC,,MIC bound,H37Rv,,>12.5 µg/mL
Oc1ccc(N=Cc2ccccc2O)cc1,,,inhibition,H37Rv,100 µg/mL,inactive
COC(=O)c1ccc(N2CCOS(=O)OCC2)cc1OC(=O)c1ccccc1,BACTEC,,inhibition,H37Rv,12.5 µg/mL,-11%
Cc1cc(O)c(C(C)C)cc1N1C(=O)C(Cl)C1/C=C/c1ccccc1,,,inhibition,H37Rv,100 µg/mL,inactive
O=c1ccc(=O)[nH][nH]1,,,MIC,,,>200 µg/mL
CCn1cc(C(=O)O)c(=O)c2cc(F)c(N3CCNCC3)nc21,,,MIC90,,,>4 µg/mL
Cc1ccc(Oc2ccc(Nc3ncnc4cc(F)ccc34)cc2)cc1,luminescence,,MIC50,H37Rv,,>20 µM
O=C(NN=C1CCCC1)c1ccccc1Cl,,,MIC,,,100 µg/mL
Cn1c(C(C)(O)c2cc3c(Cl)nccc3n2C)cc2c(Cl)nccc21,resazurin,,inhibition,H37Rv,6.25 µg/mL,-11%
O=C(Nc1ccccc1)c1cnccn1,resazurin,,MIC,ATCC 27294,,>100 µg/mL
CC[C@@H](C(=O)[C@@H](C)[C@@H](O)[C@H](C)CCc1ccc(C)c(O)c1C(=O)O)[C@H]1O[C@](CC)([C@H]2CC[C@](O)(CC)[C@H](C)O2)C[C@@H]1C,BACTEC,,inhibition,H37Rv,12.5 µg/mL,53%
CCCCCCC(O)C/C=C/CCCCCCCC(=O)NN,,,MIC,,,200 µg/mL
COc1ccc(C=C2C(=O)N=C(C)N2c2cc(C(C)C)c(O)cc2C)cc1,,,inhibition,H37Rv,100 µg/mL,inactive
C=C(NC[C@H]1CN(c2ccc(N3C4CCC3CSC4)c(F)c2)C(=O)O1)C1CCC1,broth dilution / fluorescence,,MIC,H37Rv,,0.7 µg/mL
COc1ccccc1C1C(Cl)C(=O)N1c1cc(C(C)C)c(O)cc1C,,,inhibition,H37Rv,100 µg/mL,inactive
O=C(O)c1cn(-c2ccc(F)cc2)c2cc(N3CCNCC3)c(F)cc2c1=O,,,MIC90,,,>4 µg/mL
Cc1ccc(CCNc2ncnc3ccsc23)cc1,luminescence,,MIC50,H37Rv,,>50 µM
CC1=NNC(=O)CC1,,,MIC,,,>40 µg/mL
COc1c(N2CCNC(C)C2)c(F)cc2c(=O)c(C(=O)O)cn(C3CC3)c12,,,MIC50,18 strains (levofloxacin-resistant),,0.78 µg/mL
Cc1cc(O)c(C(C)C)cc1N1C(=O)C(C)SC1c1ccccc1O,,,inhibition,H37Rv,100 µg/mL,inactive
CC(C)(C)c1ccc(CCOc2ncnc3ccsc23)cc1,luminescence,,MIC50,H37Rv,,>50 µM
O=C(Nc1ccc(Br)cc1)c1cnccn1,resazurin,,MIC,ATCC 27294,,>100 µg/mL
Fc1ccc2c(Nc3ccc(N4CCCCC4)cc3)ncnc2c1,luminescence,,MIC50,H37Rv,,>50 µM
CC(=O)N/N=C/c1ccoc1,,,MIC,,,200 µg/mL
O=C(O)C1C2CC3C(OC(=O)C31)C2NS(=O)(=O)c1ccccc1,BACTEC,,MIC bound,H37Rv,,>12.5 µg/mL
Fc1cc(N2CCN(c3ccc(C(F)(F)F)cn3)CC2)ccc1CNc1ncnc2ccccc12,luminescence,,MIC50,H37Rv,,>20 µM
O=C(O)c1oc2ccccc2c1/C=C/c1ccccc1,BACTEC,,MIC bound,H37Rv,,>12.5 µg/mL
FC(F)(F)c1cccc(Oc2ccc(Nc3ncnc4ccoc34)cc2)c1,luminescence,,MIC50,H37Rv,,>20 µM

5 of the rows above, restated:

smiles	method	mutations	read-out	strain or isolate	dose	result
O=C(N/N=C/c1ccc([N+](=O)[O-])cc1)c1ccccc1			MIC			1 µg/mL
Cc1nc2ccc(Cl)cc2c(=S)n1-c1ccc(Br)cc1			MIC	My 331/88		31 µg/mL
C[C@@H]1CN(c2c(F)c(N)c3c(=O)c(C(=O)O)cn(C4CC4)c3c2F)C[C@H](C)N1			MBC			0.5 µg/mL
Fc1cc(N2CCN(c3ccc(C(F)(F)F)cn3)CC2)ccc1CNc1ncnc2ccccc12	luminescence		MIC50	H37Rv		>20 µM
Cn1c(C(C)(O)c2cc3c(Cl)nccc3n2C)cc2c(Cl)nccc21	resazurin		inhibition	H37Rv	6.25 µg/mL	-11%